How the values were obtained:
[1] = test system: Pseudomonas aeruginosa; experiment: Ratio of MIC for Pseudomonas aeruginosa 3020R to MIC for Pseudomonas aeruginosa PAO1; format: functional
[2] = test system: Pseudomonas aeruginosa; experiment: Ratio of MIC for Pseudomonas aeruginosa 615R to MIC for Pseudomonas aeruginosa PAO1; format: functional

GENTAMICIN
fold change (FC) [1]: > 4
fold change (FC) [2]: > 4

From ChEMBL document CHEMBL1649198, “Efflux unbalance in Pseudomonas aeruginosa isolates from cystic fibrosis patients” (2009)
